# Kdimer by position in the HIV-1 leader RNA

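Randomly mutated transcripts starting with one, two or three G (1G, 2G, 3G), capped or uncapped, were folded for 30 min at 37 °C. High salt was 300 mM KCl and 5 mM MgCl2, low salt 40 mM KCl and 0.1 mM MgCl2; monomer and dimer were parted on a native gel. Mutation frequencies in the two bands give Kdimer.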

RNA: 5' end of the HIV-1 NL4-3 genome, made in vitro. Positions 1-437 read:
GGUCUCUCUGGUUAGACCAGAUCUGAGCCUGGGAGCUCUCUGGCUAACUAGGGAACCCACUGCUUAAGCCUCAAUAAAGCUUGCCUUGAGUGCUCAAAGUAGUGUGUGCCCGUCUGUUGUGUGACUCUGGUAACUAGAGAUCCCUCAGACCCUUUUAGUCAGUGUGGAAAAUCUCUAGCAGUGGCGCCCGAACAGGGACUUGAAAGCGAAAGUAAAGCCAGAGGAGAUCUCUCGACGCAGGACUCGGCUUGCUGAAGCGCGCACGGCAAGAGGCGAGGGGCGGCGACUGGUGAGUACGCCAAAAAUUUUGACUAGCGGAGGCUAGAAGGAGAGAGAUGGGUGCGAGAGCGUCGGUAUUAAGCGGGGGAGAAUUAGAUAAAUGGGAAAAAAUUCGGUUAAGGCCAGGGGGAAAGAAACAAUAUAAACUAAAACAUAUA

Values are log2 Kdimer, the median over the changes at each position: higher means that changes there hinder dimer formation, below 0 that they favour it.
One numbering serves 1G, 2G and 3G.
A position is written with its base.

{"position": "U232", "domain": "CU", "3G capped high-salt": 0.22, "3G capped low-salt": 0.91, "3G uncapped high-salt": 0.21, "3G uncapped low-salt": 1.02}
{"position": "C233", "domain": "CU", "3G capped high-salt": 0.82, "3G capped low-salt": 0.94, "3G uncapped high-salt": 0.49, "3G uncapped low-salt": 0.74}
{"position": "G234", "domain": "none", "3G capped high-salt": 1.11, "3G capped low-salt": 0.29, "3G uncapped high-salt": 0.44, "3G uncapped low-salt": 0.43}
{"position": "A235", "domain": "none", "3G capped high-salt": -1.03, "3G capped low-salt": -1.59, "3G uncapped high-salt": -0.87, "3G uncapped low-salt": -1.56}
{"position": "C236", "domain": "none", "3G capped high-salt": 2.65, "3G capped low-salt": 1.94, "3G uncapped high-salt": 1.95, "3G uncapped low-salt": 1.69}
{"position": "G237", "domain": "none", "3G capped high-salt": 1.18, "3G capped low-salt": 1.00, "3G uncapped high-salt": 0.60, "3G uncapped low-salt": 0.90}
{"position": "C238", "domain": "none", "3G capped high-salt": 2.80, "3G capped low-salt": 2.35, "3G uncapped high-salt": 1.96, "3G uncapped low-salt": 2.26}
{"position": "A239", "domain": "none", "3G capped high-salt": -0.50, "3G capped low-salt": -0.34, "3G uncapped high-salt": -0.28, "3G uncapped low-salt": -0.26}
{"position": "G240", "domain": "none", "3G capped high-salt": -0.48, "3G capped low-salt": -0.28, "3G uncapped high-salt": -0.09, "3G uncapped low-salt": -0.15}
{"position": "G241", "domain": "none", "3G capped high-salt": -0.34, "3G capped low-salt": -0.45, "3G uncapped high-salt": -0.26, "3G uncapped low-salt": -0.62}
{"position": "A242", "domain": "none", "3G capped high-salt": 0.69, "3G capped low-salt": 2.02, "3G uncapped high-salt": 1.15, "3G uncapped low-salt": 1.98}
{"position": "C243", "domain": "SL1", "3G capped high-salt": 0.65, "3G capped low-salt": 1.44, "3G uncapped high-salt": 1.03, "3G uncapped low-salt": 1.72}
{"position": "U244", "domain": "SL1", "3G capped high-salt": 0.38, "3G capped low-salt": 1.45, "3G uncapped high-salt": 0.40, "3G uncapped low-salt": 2.39}
{"position": "C245", "domain": "SL1", "3G capped high-salt": 1.13, "3G capped low-salt": 2.06, "3G uncapped high-salt": 1.28, "3G uncapped low-salt": 1.97}
{"position": "G246", "domain": "SL1", "3G capped high-salt": 1.05, "3G capped low-salt": 1.92, "3G uncapped high-salt": 1.33, "3G uncapped low-salt": 2.04}
{"position": "G247", "domain": "SL1", "3G capped high-salt": -0.95, "3G capped low-salt": -1.27, "3G uncapped high-salt": -0.63, "3G uncapped low-salt": -1.34}
{"position": "C248", "domain": "SL1", "3G capped high-salt": 0.57, "3G capped low-salt": 0.80, "3G uncapped high-salt": 0.79, "3G uncapped low-salt": 0.78}
{"position": "U249", "domain": "SL1", "3G capped high-salt": 1.16, "3G capped low-salt": 1.85, "3G uncapped high-salt": 1.56, "3G uncapped low-salt": 1.86}
{"position": "U250", "domain": "SL1", "3G capped high-salt": 2.62, "3G capped low-salt": 2.93, "3G uncapped high-salt": 2.75, "3G uncapped low-salt": 1.87}
{"position": "G251", "domain": "SL1", "3G capped high-salt": 4.04, "3G capped low-salt": 3.65, "3G uncapped high-salt": 5.86, "3G uncapped low-salt": 5.33}
{"position": "C252", "domain": "SL1", "3G capped high-salt": 2.97, "3G capped low-salt": 3.57, "3G uncapped high-salt": 4.58, "3G uncapped low-salt": 3.61}
{"position": "U253", "domain": "SL1", "3G capped high-salt": 1.90, "3G capped low-salt": 2.65, "3G uncapped high-salt": 2.45, "3G uncapped low-salt": 2.47}
{"position": "G254", "domain": "SL1", "3G capped high-salt": 2.17, "3G capped low-salt": 2.97, "3G uncapped high-salt": 2.44, "3G uncapped low-salt": 2.63}
{"position": "A255", "domain": "SL1", "3G capped high-salt": -0.22, "3G capped low-salt": -0.40, "3G uncapped high-salt": -0.43, "3G uncapped low-salt": -0.36}

A selection of 2 entries from above:

position,domain,3G capped high-salt,3G capped low-salt,3G uncapped high-salt,3G uncapped low-salt
C243,SL1,0.65,1.44,1.03,1.72
G237,none,1.18,1.00,0.60,0.90

Values reported by Ye et al. 2022 (doi:10.1038/s41594-022-00746-2).